Pooled drug test results. Numbers come from NIAID ChemDB, via PubChem.

Common to all: growth or infection tests; agent: HIV-1; read-out: EC50

Lines come from different laboratories, so protocols vary.

structure | read by | cell line | strain | conditions | mutations | value
Cc1ccc2ccc(C)c(-n3c(SCC(=O)Nc4ccc(S(N)(=O)=O)cc4Cl)nnc3C(F)(F)F)c2c1 | luciferase | HeLa + HeLa-JC53 | NL4-3 | - | RT-Y188L | 0.026 µM
CCOCC(C)Oc1ncc(-c2cnc(C)c([C@H](OC(C)(C)C)C(=O)O)c2N2CCC(C)(C)CC2)cc1F | luminescence | MT-2 | NL4-3 | - | - | 0.0028 µM
Cc1occc1C(=S)Nc1ccc(Cl)c(C(=O)OC(C)C)c1 | cytopathic effect / XTT | CEM + CEM-SS | RF | - | - | 0.026 µM
Cc1cc(S(N)(=O)=O)ccc1NC(=O)COc1ccc(Cl)cc1C(=O)c1cc(F)cc(C(F)(F)F)c1 | β-galactosidase | HeLa + HELA CD4+ | HXB2 | - | RT-Y181C | <0.01 µM
CC(C)CN(C[C@@H](O)[C@H](Cc1ccccc1)NC(=O)O[C@H]1CO[C@H]2OCC[C@H]21)S(=O)(=O)c1ccc2c(c1)OCO2 | p24 | PHA-PBM | MDR/JSL | - | - | 0.006 µM
Cc1ccc(-n2c(C)nnc2SCC(=O)Nc2ccc(Oc3ccccc3)cc2)cc1 | luciferase | HeLa + HeLa-JC53 | NL4-3 | - | RT-K103N Y181C | >10 µM
O=C1Nc2ccc(Cl)cc2C(C#Cc2cncs2)(C(F)(F)F)O1 | - | - | - | - | - | <0.00669 µM
O=C(C(=O)N1CCN(C(=O)c2ccccc2)CC1)c1c[nH]c2c(Br)cccc12 | luciferase | HeLa + HELA CD4+/CCR5 | - | - | - | <10 µM
Nc1c(C(=O)NCc2ccc(F)cc2F)c(=O)n(O)c2ncc(CCS(=O)(=O)c3ccccc3)cc12 | luciferase | HOS | - | - | - | <0.004 µM
CC(C)C1=C2[C@H]3CC[C@@H]4[C@@]5(C)CC[C@H](OC(=O)[C@H]6C[C@@H](C(=O)O)C6(C)C)C(C)(C)[C@@H]5CC[C@@]4(C)[C@]3(C)CC[C@@]2(CC(=O)NCC2(NC(=O)c3ccc(Cl)cc3)CCC2)CC1=O | p24 / ELISA | MT-2 | 92HT599 | - | - | <1 µM
CC(C)=CCOc1cc(NC(=S)c2ccsc2C)ccc1Cl | cytopathic effect / XTT | CEM + CEM-SS | E BPTU-resistant (RT Y181C) | - | RT-Y181C | 0.2 µM
Cc1cc(OCCNc2ccc(-c3cnc(C)c([C@H](OC(C)(C)C)C(=O)O)c3N3CCC(C)(C)CC3)nc2)ccc1F | luminescence | MT-2 | NL4-3 | - | - | 0.0016 µM
CC(=O)OCCCc1cnc2c(c1)c(N)c(C(=O)NCc1ccc(F)cc1F)c(=O)n2O | luciferase | HOS | - | - | - | <0.004 µM
CCCN(CCC[C@H](NC(C)=O)C(=O)NCc1ccccc1)C(=O)N(CCCl)N=O | cytopathic effect / XTT | CEM-IW + CEM | IIIB | - | - | >100 µM
O=C(C(=O)N1CCN(C(=O)c2cc3ccccc3o2)CC1)c1c[nH]c2cccc(F)c12 | luciferase | HeLa + HELA CD4+/CCR5 | - | - | - | <10 µM
Cc1ncc(-c2ccc(OCCc3ccn(C)n3)cn2)c(N2CCC(C)(C)CC2)c1[C@H](OC(C)(C)C)C(=O)O | luminescence | MT-2 | NL4-3 | - | - | 0.0096 µM
C=CCNC(=O)N(CCC)CCCC[C@H](NC(C)=O)C(=O)NCc1ccccc1 | cytopathic effect / XTT | CEM-IW + CEM | IIIB | - | - | >100 µM
CC(C)=CCOC1(C(F)(F)F)OC(=O)Nc2ccc(F)c(F)c21 | - | - | - | - | RT-K103N | <0.065 µM
CC(=O)N[C@@H](CCCCN)C(=O)NCc1ccccc1 | cytopathic effect / XTT | CEM-IW + CEM | IIIB | - | - | >100 µM
C=CCOc1cc(NC(=S)c2sccc2C)ccc1Cl | cytopathic effect / XTT | CEM + CEM-SS | IIIB | - | - | 0.8 µM
C/C=C\COC1(C(F)(F)F)OC(=O)Nc2ccc(Cl)cc21 | - | - | - | - | - | <0.00435 µM
O=C(COc1ccc(Cl)cc1C(=O)c1ccccc1)Nc1ccc2cn[nH]c2c1 | β-galactosidase | HeLa + HELA CD4+ | HXB2 | - | RT-K103N | <0.01 µM
Nc1ccn([C@@H]2C=C(F)[C@H](CO)O2)c(=O)n1 | PCR | PBMC | BRU | - | - | <0.6 µM
Cc1cncc(CN(CCN(C)C)C(=O)C[C@@]23CC[C@]4(C)[C@H](CC[C@@H]5[C@@]6(C)CC[C@H](OC(=O)[C@H]7C[C@@H](C(=O)O)C7(C)C)C(C)(C)[C@@H]6CC[C@]54C)C2=C(C(C)C)C(=O)C3)n1 | p24 / ELISA | MT-2 | 92HT599 | - | - | <1 µM
C[C@@H]1CCO[C@H]2Cn3cc(C(=O)NCc4ccc(F)cc4F)c(=O)c(O)c3C(=O)N12 | RT activity | CBMC | NL4-3 | - | N155H | 0.0016 µM
Cc1cc(S(N)(=O)=O)ccc1NC(=O)COc1ccc(Cl)cc1C(=O)c1cc(C#N)cc(C#N)c1 | β-galactosidase | HeLa + HELA CD4+ | HXB2 | - | RT-K103N | <0.01 µM
CC(=O)COc1cc(NC(=S)OC(C)C)ccc1Cl | cytopathic effect / XTT | CEM + CEM-SS | NL4-3 | - | - | 0.05 µM
CC(C)C1=C2[C@H]3CC[C@@H]4[C@@]5(C)CC[C@H](OC(=O)[C@H]6C[C@@H](C(=O)O)C6(C)C)C(C)(C)[C@@H]5CC[C@@]4(C)[C@]3(C)CC[C@@]2(CC(=O)NC2(CNC(=O)c3ccc(Cl)cc3)CCCCC2)CC1=O | p24 / ELISA | MT-2 | 92HT599 | - | - | <1 µM
Cc1cc(C)cc(C(=O)c2cc(Cl)ccc2OCC(=O)Nc2ccc(S(N)(=O)=O)cc2C)c1 | β-galactosidase | HeLa + HELA CD4+ | HXB2 | - | RT-V108I Y181C | <0.01 µM
CC(C)C1=C2[C@H]3CC[C@@H]4[C@@]5(C)CC[C@H](OC(=O)[C@H]6C[C@@H](C(=O)O)C6(C)C)C(C)(C)[C@@H]5CC[C@@]4(C)[C@]3(C)CC[C@@]2([C@@H](O)CNCc2ccc3nc(-c4ccccc4)[nH]c3c2)CC1=O | p24 / ELISA | MT-2 | 92HT599 | - | - | <1 µM
O=C1Nc2ccc(F)c(F)c2C(OCC=C(Cl)Cl)(C(F)(F)F)O1 | - | - | - | - | - | <0.00635 µM
O=C(C(=O)N1CCN(C(=O)c2ccccc2)CC1)c1c[nH]c2c(Br)ccc(OC(F)(F)F)c12 | luciferase | HeLa + HELA CD4+/CCR5 | - | - | - | <10 µM
C[C@]1(CO)O[C@@H](n2cnc3c(N)ncnc32)C[C@@H]1O | luciferase | HOS | - | - | AZT-R (delta)Env | 0.064 µM
Cc1ncc(-c2ccc(OCCN3CCOCC3)cn2)c(N2CCC(C)(C)CC2)c1[C@H](OC(C)(C)C)C(=O)O | luminescence | MT-2 | NL4-3 | - | - | 0.0245 µM
CCN1C[C@H](C)n2c(c(O)c3c(=O)n(Cc4ccc(F)c(Cl)c4)nc(C(=O)NC)c32)C1=O | RT activity | PM1 | NL4-3 | - | E138K | 0.0012 µM
Cc1cc(S(N)(=O)=O)ccc1NC(=O)COc1ccc(Cl)cc1C(=O)c1cc(F)cc(C(F)(F)F)c1 | luciferase | HELA MAGI | IIIB | - | RT-K101E | 0.0034 µM
Cc1ccc(-c2ccc3c(c2)C=C(C(=O)Nc2ccc(C[N+](C)(C)C4CCOCC4)cc2)CCC3)cc1 | p24 | PBMC | COT6 CLADE C | - | - | <5 µM
O=C(NCc1c(F)cc(F)cc1F)c1cn2c(c(O)c1=O)C(=O)N1[C@H]3CC[C@H](C3)O[C@@H]1C2 | luciferase | HOS | - | - | AGT (GGGAGT) | <0.001 µM
CC(C)C1=C2[C@H]3CC[C@@H]4[C@@]5(C)CC[C@H](OC(=O)[C@H]6C[C@@H](C(=O)O)C6(C)C)C(C)(C)[C@@H]5CC[C@@]4(C)[C@]3(C)CC[C@@]2(CC(=O)NC(C)(C)CNC(=O)c2ccc3c(c2)OCO3)CC1=O | p24 / ELISA | MT-2 | 92HT599 | - | - | <1 µM
CCc1nnc(SCC(=O)Nc2ccc(C)cc2Br)n1-c1ccc(C)cc1 | luciferase | HeLa + HeLa-JC53 | NL4-3 | - | RT-K103N Y181C | 2.5 µM
COC(COc1ccc(-c2cnc(C)c([C@H](OC(C)(C)C)C(=O)O)c2N2CCC(C)(C)CC2)nc1)C(C)C | luminescence | MT-2 | NL4-3 | - | - | 0.0006 µM
C[C@@H]1CN(C(=O)c2ccc(N)cc2)CCN1C(=O)C(=O)c1c[nH]c2c(F)ccc(F)c12 | luciferase | HeLa + HELA CD4+/CCR5 | - | - | - | <10 µM
CC(=O)N[C@@H](CCCCNC(=O)N(C)N=O)C(=O)NCc1ccccc1 | cytopathic effect / XTT | CEM-IW + CEM | IIIB | - | - | >100 µM
Nc1c(C(=O)NCc2ccc(F)cc2F)c(=O)n(O)c2ncc(CCCCCCO)cc12 | luciferase | HOS | - | - | AGC (GGGAGC) | <0.003 µM
Cc1ccc(-c2nc3ccc(CNC[C@H](O)[C@@]45CC[C@]6(C)[C@H](CC[C@@H]7[C@@]8(C)CC[C@H](OC(=O)[C@H]9C[C@@H](C(=O)O)C9(C)C)C(C)(C)[C@@H]8CC[C@]76C)C4=C(C(C)C)C(=O)C5)cc3[nH]2)cn1 | p24 / ELISA | MT-2 | 92HT599 | - | - | <1 µM
CC(C)=CCN1Cc2cccc3[nH]c(=O)n(c23)CC1C | cytopathic effect / XTT | CEM + CEM-SS | UC781-R (RT-Y181C) | - | RT-Y181C | 11.8 µM
CS(=O)c1ccc(-c2nc(-c3ccc(F)cc3)c(-c3ccncc3)[nH]2)cc1 | p24 | Jurkat cells | 89.6 | - | - | <1 µM
CC=CCOc1cc(NC(=S)c2ccoc2C)ccc1OC | cytopathic effect / XTT | CEM + CEM-SS | NL4-3 | - | - | 0.03 µM
Cc1cc(F)ccc1OCCN(C)c1ccc(-c2cnc(C)c([C@H](OC(C)(C)C)C(=O)O)c2N2CCC(C)(C)CC2)cn1 | luminescence | MT-2 | NL4-3 | - | - | 0.002 µM
CC(C)C1=C2[C@H]3CC[C@@H]4[C@@]5(C)CC[C@H](OC(=O)[C@H]6C[C@@H](C(=O)O)C6(C)C)C(C)(C)[C@@H]5CC[C@@]4(C)[C@]3(C)CC[C@@]2(CCNCC(C)(C)NC(=O)CN2CCCCC2)CC1=O | p24 / ELISA | MT-2 | 92HT599 | - | - | <1 µM
Cc1occc1C(=S)Nc1ccc(Cl)c(/C=N/OC(C)(C)C)c1 | cytopathic effect / XTT | CEM + CEM-SS | NL4-3 | - | - | 0.08 µM
COc1cccc2c(C(=O)C(=O)N3CCN(C(=O)c4ccccn4)C[C@H]3C)c[nH]c12 | luciferase | HeLa + HELA CD4+/CCR5 | - | - | - | <10 µM
Cc1cc2cn[nH]c2cc1NC(=O)COc1ccc(Cl)cc1C(=O)c1cccc(C#N)c1 | β-galactosidase | HeLa + HELA CD4+ | HXB2 | - | RT-L100I | <0.01 µM
CN1c2ccccc2C2C1C=C(C#N)C(=O)N2c1ccc([N+](=O)[O-])cc1 | GFP / fluorescence | HeLa | AE-CMU06 | - | - | 0.07 µM
CC(C)C1=C2[C@H]3CC[C@@H]4[C@@]5(C)CC[C@H](OC(=O)[C@H]6C[C@@H](C(=O)O)C6(C)C)C(C)(C)[C@@H]5CC[C@@]4(C)[C@]3(C)CC[C@@]2(CC(=O)NCc2ccncc2)CC1=O | p24 / ELISA | MT-2 | 92HT599 | - | - | <1 µM
Cc1cc(C#N)cc(C(=O)c2cc(Cl)ccc2OCC(=O)Nc2cnc(S(N)(=O)=O)cc2C)c1 | β-galactosidase | HeLa + HELA CD4+ | HXB2 | - | RT-V106A Y181C | <0.01 µM
CC1CC(C)CN(S(=O)(=O)c2ccccc2[N+](=O)[O-])C1 | GFP / fluorescence | HeLa | 12AG | - | - | 50 µM
O=C(C(=O)N1CCN(C(=O)c2cc(Cl)ccc2S)CC1)c1c[nH]c2cccc(F)c12 | luciferase | HeLa + HELA CD4+/CCR5 | - | - | - | <10 µM
CNC(=O)N(CCC[C@H](NC(C)=O)C(=O)NCc1ccccc1)Cc1ccccc1 | cytopathic effect / XTT | CEM-IW + CEM | IIIB | - | - | >100 µM
Cc1cc(S(N)(=O)=O)ccc1NC(=O)COc1ccc(Cl)cc1C(=O)c1cc(Cl)cc(C#N)c1 | β-galactosidase | HeLa + HELA CD4+ | HXB2 (RT-K103N Y181C) Recombinant | - | RT-K103N Y181C | <0.01 µM
Cc1ncc(-c2ccc(OCCOc3c(F)cccc3Cl)cn2)c(N2CCC(C)(C)CC2)c1[C@H](OC(C)(C)C)C(=O)O | luminescence | MT-2 | NL4-3 | - | - | 0.0008 µM
COc1cccc2[nH]cc(C(=O)C(=O)N3CCN(C(=O)c4ccccc4)C[C@H]3C)c12 | virus yield | MT-2/CXCR4 | SF2 | - | - | 0.0265 µM
C=CCO/N=C/c1cc(NC(=S)c2ccoc2C)ccc1Cl | cytopathic effect / XTT | CEM + CEM-SS | NL4-3 | - | RT-A98G | 0.4 µM
Cc1nnc(-c2cccc(-c3cccc(C(=O)N4CCCCC4)c3)c2)o1 | luminescence | TZM-bl | X1632 | pseudotyped | - | >30 µM
CC(C)=CCOc1cc(NC(=S)c2ccoc2C)ccc1Cl | cytopathic effect / XTT | CEM + CEM-SS | E BPTU-resistant (RT Y181C) | - | RT-Y181C | 0.4 µM
CC(=O)Oc1ccccc1C(=O)N1CCN(C(=O)C(=O)c2c[nH]c3cccc(F)c23)CC1 | luciferase | HeLa + HELA CD4+/CCR5 | - | - | - | <10 µM
Cc1ccc(-n2c(C)nnc2SCC(=O)Nc2ccccc2-c2ccccc2)cc1 | luciferase | HeLa + HeLa-JC53 | NL4-3 | - | RT-K103N Y181C | >10 µM
Cc1ccc(C)n1-c1ccc(C(=O)O)c(O)c1 | luciferase / cell fusion | PBMC/5.25M7 | 93BR020 X4R5 CLADE F | - | - | 7.04 µM
Nc1cccc(C(=O)N2CCN(C(=O)C(=O)c3c[nH]c4c(F)ccc(F)c34)CC2)c1 | luciferase | HeLa + HELA CD4+/CCR5 | - | - | - | <10 µM

An empty or dashed field is not shown. ECn is the concentration giving n% inhibition of infection, replication or growth.